Pooled drug test results. Numbers come from NIAID ChemDB, via PubChem.

Common to all: toxicity to cultured cells; endpoint: CC50

An empty or dashed field is not shown. CCn is the concentration with n% toxicity to the cells. Neighbouring rows are from separate reports.

structure	cells	method	value
OC[C@H]1O[C@@H](n2ccc3c(-c4cccc5c4oc4ccccc45)nc(Cl)nc32)C(O)C1O	K562 leukemia cells	MTT	>50 µM
O=C(Cc1ccc(F)c(F)c1)NCCc1ccc2c(n1)NCCC2	PBMC		50 µM
Cc1ccc(-n2ncc3c(Nc4cccc(Cl)c4)ncnc32)c(C)c1	HUH 9B		30 µM
COc1cccc(Cc2cc(C3CCN(C(=O)c4ccc5c(c4)OCO5)CC3)nc(N)n2)c1	Jurkat cells (PMA-stimulated)		0.3 µM
Cc1cc2c(O[C@H]3O[C@H](CO)[C@@H](O)[C@H]3O)ccc(O)c2c(=O)o1	A-594	MTT	>40 µg/mL
O=S(=O)(NCCc1ccc2c(n1)NCCC2)c1ccc(OC(F)(F)F)cc1	PBMC		50 µM
COc1ccc(-c2c(C)nc(N)nc2C2CCN(C(=O)c3ccc4c(c3)OCO4)CC2)cc1	Jurkat cells (PMA-stimulated)		>5 µM
CC(C)c1ccc2c(c1)c(=O)cc(-c1ccco1)n2C	HeLa S3	MTT	>20 µg/mL
O=C(c1cccc(-c2cc(=O)n(O)c3ncccc23)c1)N1CCOCC1	HeLa		<100 µM
CCOC(=O)[C@@]1(C)CC[C@]2(C)CC[C@]3(C)C(=CC(=O)[C@@H]4[C@@]5(C)CC/C(=N\OCc6ccc(F)c(F)c6)C(C)(C)[C@@H]5CC[C@]43C)[C@@H]2C1	K562	MTT	22.42 µM
Clc1ccc(-n2ncc3c(NCCc4c[nH]c5ccccc45)ncnc32)c(Cl)c1	HUH 9B		11 µM
CCn1c(-c2cccs2)cc(=O)c2cc(C(C)C)ccc21	HELA-OHIO	MTT	14 µg/mL
O=c1cc(NCc2ccccc2F)c2cccnc2n1O	HeLa		<100 µM
CCOC(=O)[C@@]1(C)CC[C@]2(C)CC[C@]3(C)C(=CC(=O)[C@@H]4[C@@]5(C)CC/C(=N\OCc6cc(C)cc(C)c6)C(C)(C)[C@@H]5CC[C@]43C)[C@@H]2C1	K562	MTT	66.16 µM
COc1ccc(Cc2cc(C3CCN(C(=O)c4ccc5ncoc5c4)CC3)nc(N)n2)cc1	Jurkat cells (PMA-stimulated)		>5 µM
Cc1ccc(-n2ncc3c(NC(=O)Nc4ccc(Cl)cc4)ncnc32)c(C)c1	HUH 9B		42 µM
O=C(NCCc1ccc2c(n1)NCCC2)NC1C2CC3CC(C2)CC1C3	PBMC		20 µM
OC[C@H]1O[C@@H](n2ccc3c(-c4cccs4)nc(F)nc32)C(O)C1O	CEM-DNR leukemia cells	MTT	>50 µM
COc1ccc(Cc2cc(C3CCN(C(=O)c4ccc5c(c4)OCO5)CC3)nc(=O)[nH]2)cc1	Jurkat cells (PMA-stimulated)		>5 µM
CC(C)(C)OC(=O)Nc1cccc(CCNC(=O)Nc2cccc(F)c2)n1	PBMC		25 µM
CCOC(=O)[C@@]1(C)CC[C@]2(C)CC[C@]3(C)C(=CC(=O)[C@@H]4[C@@]5(C)CC/C(=N\OCC6(C)COC6)C(C)(C)[C@@H]5CC[C@]43C)[C@@H]2C1	K562	MTT	55.46 µM
COc1ccc(-c2c(C)c(=O)c3cc(OCC(C)C)c(C)cc3n2C)cc1C	HELA-OHIO	MTT	>4 µg/mL
CCOC(=O)[C@@]1(C)CC[C@]2(C)CC[C@]3(C)C(=CC(=O)[C@@H]4[C@@]5(C)CC/C(=N\OCC6CCOCC6)C(C)(C)[C@@H]5CC[C@]43C)[C@@H]2C1	CT26	MTT	37.39 µM
OC[C@H]1O[C@@H](n2ccc3c(-c4cc5ccccc5o4)nc(F)nc32)C(O)C1O	K562 leukemia cells	MTT	47.6 µM
CCOC(=O)[C@@]1(C)CC[C@]2(C)CC[C@]3(C)C(=CC(=O)[C@@H]4[C@@]5(C)CC/C(=N\OCc6cnc(Cl)s6)C(C)(C)[C@@H]5CC[C@]43C)[C@@H]2C1	K562	MTT	8.86 µM
OC[C@H]1O[C@@H](n2ccc3c(-c4cc5ccccc5o4)nc(Cl)nc32)C(O)C1O	CCRF-CEM leukemia cells	MTT	5.8 µM
CCOC(=O)[C@@]1(C)CC[C@]2(C)CC[C@]3(C)C(=CC(=O)[C@@H]4[C@@]5(C)CC/C(=N\OCc6ccc(C(F)(F)F)cc6)C(C)(C)[C@@H]5CC[C@]43C)[C@@H]2C1	CT26	MTT	>100 µM
CCOc1ccc(Nc2ncnc3c2cnn3-c2ccccc2)cc1	HUH 9B		50 µM
O=C(NCCc1ccc2c(n1)NCCC2)Nc1ccc(C(F)(F)F)cc1Cl	PBMC		25 µM
O=c1cc(NC2CCN(c3ccccc3)CC2)c2cccnc2n1O	HeLa		0.27 µM
Nc1nc(-c2ccccc2)cc(C2CCN(C(=O)c3ccc4c(c3)OCO4)CC2)n1	Jurkat cells (PMA-stimulated)		>5 µM
CCc1ccc(S(=O)(=O)NCCc2ccc3c(n2)NCCC3)cc1	PBMC		50 µM
O=c1c(-c2ccccc2)c(O)c2cccnc2n1O	HeLa		<100 µM
O=C(CCc1ccc(Cl)c(Cl)c1)NCCc1ccc2c(n1)NCCC2	PBMC		50 µM
CCc1nc(CCC(=O)O)cnc1CCC(=O)O	SW-480	MTT	>40 µg/mL
CCn1c(-c2ccccc2)c(C)c(=O)c2ccc(C(C)C)cc21	HeLa S3	MTT	>10 µg/mL
COc1cccc(CC(=O)NCCc2ccc3c(n2)NCCC3)c1	PBMC		50 µM
CCn1c(-c2ccccc2)c(C)c(=O)c2c(Cl)c(OCC(C)C)ccc21	HeLa S3	MTT	>4 µg/mL
Cc1cc(NC(=O)NCCc2ccc3c(n2)NCCC3)c(C(F)(F)F)o1	PBMC		50 µM
O=c1cc(-c2cncnc2)c2cccnc2n1O	HeLa		<100 µM

For reference, 5 entries again:

{"structure": "CC(C)(C)OC(=O)Nc1cccc(CCNC(=O)Nc2cccc(F)c2)n1", "cells": "PBMC", "value": "25 µM"}
{"structure": "OC[C@H]1O[C@@H](n2ccc3c(-c4cc5ccccc5o4)nc(Cl)nc32)C(O)C1O", "cells": "CCRF-CEM leukemia cells", "method": "MTT", "value": "5.8 µM"}
{"structure": "CCOC(=O)[C@@]1(C)CC[C@]2(C)CC[C@]3(C)C(=CC(=O)[C@@H]4[C@@]5(C)CC/C(=N\\OCC6CCOCC6)C(C)(C)[C@@H]5CC[C@]43C)[C@@H]2C1", "cells": "CT26", "method": "MTT", "value": "37.39 µM"}
{"structure": "OC[C@H]1O[C@@H](n2ccc3c(-c4cccs4)nc(F)nc32)C(O)C1O", "cells": "CEM-DNR leukemia cells", "method": "MTT", "value": ">50 µM"}
{"structure": "O=c1cc(-c2cncnc2)c2cccnc2n1O", "cells": "HeLa", "value": "<100 µM"}